The test system of this data set is Paramyxovirus: Sendai virus. The data set is classed as cell-based. To be noted: Sendai virus in cell culture (Table 2); SI = CC50/EC50, CC50 by MTT.
`CC(=O)Oc1cc(C)ccc1C(=O)Nc1ncc(Br)s1` [RM-4822] showed an SI of 7. The result for `CC(=O)Oc1ccccc1C(=O)Nc1ncc(Br)s1` [RM-4820, 2-(acetolyloxy)-N-(5-bromo-2-thiazolyl)benzamide] reads 35. On to `CC(=O)Oc1ccc(C)cc1C(=O)Nc1ncc(Br)s1` [RM-4821], for which the SI is reported as above 50.
